Anti-infective test results gathered from many reports (values: NIAID ChemDB through PubChem).

Common to all: growth or infection tests; organism: Mycobacterium avium

Two numbers with a dash give a range or band.

| structure | read by | strain or isolate | setting | endpoint | result |
|---|---|---|---|---|---|
| N/C(=N\NC(CC(=O)c1ccc(-c2ccccc2)cc1)c1ccccn1)c1ccccn1 | - | 17 strains | - | MIC90 | 160 µg/mL |
| CCCCS(=O)(=O)NC[C@H]1O[C@H](O[C@H]2O[C@H](CNS(=O)(=O)CCC)[C@@H](O)[C@H](O)[C@H]2O)[C@H](O)[C@@H](O)[C@@H]1O | - | NJ168 | - | MIC | >128 µg/mL |
| CCC(C)c1ccc(NC(=O)c2cc(Cl)ccc2N)cc1 | - | MY330/88 | - | MIC | 31 µM |
| COC(=O)c1ccc(C(=O)c2ccc(-c3ccc(Br)cc3)cc2)cc1 | - | - | - | MIC | 316 µM |
| CN1CCN(c2c(F)cc3c(=O)c(C(=O)O)cn(CCF)c3c2F)CC1 | - | ATCC 15769 | - | MIC50 | 25 µg/mL |
| N#Cc1cnc(C(N)=O)c(Nc2ccc(O)cc2)n1 | - | 80/72 | - | MIC | >100 µg/mL |
| C(=C\c1ccccc1)/CNc1ccc(CN2CCOCC2)cc1 | - | 103317 | - | MIC | 8 µg/mL |
| CC(=O)Oc1c(Cl)cccc1C(=O)Nc1cccc(Cl)c1 | - | MY330/88 | - | MIC | 8 µg/mL |
| N/C(=N\NC(CC(=O)c1ccc(Cl)cc1)c1ccccn1)c1ccccn1 | - | 17 strains | - | MIC90 | 160 µg/mL |
| O=c1oc2ccccc2c(=O)n1-c1ccc(Cl)c(Cl)c1 | - | CNCTC MY330/88 | - | MIC | 8 µM |
| C(/C=C/c1ccccc1)=Nc1ccc(Cn2ccnc2)cc1 | - | 103317 | - | MIC | 2 µg/mL |
| CCCCCCOc1cccc(NC(=O)OCC[NH+]2CCCC2)c1 | - | MY330/88 | - | MIC | 32 µM |
| Nc1ccc(Cl)cc1C(=O)Nc1ccc(F)cc1 | - | MY330/88 | - | MIC | >62 µM |
| CO[C@H]1/C=C/O[C@@]2(C)Oc3c(C)c(O)c4c(O)c(cc(O)c4c3C2=O)NC(=O)/C(C)=C\C=C\[C@H](C)[C@H](O)[C@@H](C)[C@@H](O)[C@@H](C)[C@H](OC(C)=O)[C@@H]1C | - | Rhode Island | - | MIC | 1 µg/mL |
| CCCCOc1ccc(NC(=O)OCC[NH+]2CCCC2)cc1 | - | MY330/88 | - | MIC | 250 µM |
| CCCCCCCCCCCCCCCCCCN(C)C[C@H]1O[C@H](O[C@H]2O[C@H](CN(C)CCCCCCCCCCCCCCCCCC)[C@@H](O)[C@H](O)[C@H]2O)[C@H](O)[C@@H](O)[C@@H]1O | - | NJ168 | - | MIC | >128 µg/mL |
| CCCCCc1ccc(NC(=O)NNC(=O)c2ccncc2)cc1 | broth dilution | MY330/88 | 21 d | MIC100 | 125 µM |
| COc1ccc(Cn2c(=O)oc3ccc([N+](=O)[O-])cc3c2=O)cc1 | - | MY330/88 | - | MIC | 1000 µM |
| COc1ccccc1NC(=O)OCCN(C)C | - | MY330/88 | - | MIC | 1000 µM |
| CCCCCCCCS(=O)(=O)NC[C@H]1O[C@H](O[C@H]2O[C@H](CNS(=O)(=O)CCCCCCCC)[C@@H](O)[C@H](O)[C@H]2O)[C@H](O)[C@@H](O)[C@@H]1O | - | NJ168 | - | MIC | 32–64 µg/mL |
| CC(C)c1ccc(NC(=O)NNC(=O)c2ccncc2)cc1 | broth dilution | MY330/88 | 21 d | MIC100 | 32 µM |
| CCCCCOc1ccccc1NC(=O)OCC[NH+]1CCCC1 | - | MY330/88 | - | MIC | 62.5 µM |
| NC(=S)CSc1cc(C(N)=S)ccn1 | - | 330/88 | - | MIC | 125 µM |
| Nc1ccc(Cl)cc1C(=O)Nc1ccc(Br)cc1 | - | MY330/88 | - | MIC | 62 µM |
| CCCCCCCCCCCC(N)=NC[C@H]1O[C@H](O[C@H]2O[C@H](CN=C(N)CCCCCCCCCCC)[C@@H](O)[C@H](O)[C@H]2O)[C@H](O)[C@@H](O)[C@@H]1O | - | NJ168 | - | MIC | 16 µg/mL |
| CCOC(=O)CSc1ccnc(C(N)=S)c1 | - | 330/88 | - | MIC | 500 µM |
| N/C(=N\NC(CC(=O)c1ccccc1)c1cccnc1)c1ccccn1 | - | 17 strains | - | MIC90 | 320 µg/mL |
| Cc1ccc(Nc2nc(C#N)cnc2C(N)=O)cc1[N+](=O)[O-] | - | 80/72 | - | MIC | >100 µg/mL |
| O=Cc1coc2ccc([N+](=O)[O-])cc2c1=O | - | MY330/88 | - | MIC | 1000 µM |
| CCCCc1ccc(NC(=O)NNC(=O)c2ccncc2)cc1 | broth dilution | MY330/88 | 21 d | MIC100 | 125 µM |
| Nc1ccc(Cl)cc1C(=O)Nc1ccc(Cl)c(Cl)c1 | - | MY330/88 | - | MIC | 31 µM |
| CCCCCCCOc1ccc(NC(=O)OCCN2CCOCC2)cc1 | - | MY330/88 | - | MIC | 32 µM |
| CC(=O)Nc1ccc(/C=N/NC(N)=S)cc1 | - | 168 | - | MIC | 0.08 µg/mL |
| O=c1oc2c(Cl)cc(Cl)cc2c(=O)n1Cc1ccccc1 | - | MY330/88 | - | MIC | 250 µM |
| CCCCCCCCCCCCN(CCCCCCCCCCCC)C[C@H]1O[C@H](O[C@H]2O[C@H](CN(CCCCCCCCCCCC)CCCCCCCCCCCC)[C@@H](O)[C@H](O)[C@H]2O)[C@H](O)[C@@H](O)[C@@H]1O | - | NJ211 | - | MIC | >128 µg/mL |
| N#CCSc1cc(C#N)ccn1 | - | 330/88 | - | MIC | 62 µM |
| CC(C)c1ccc(NC(=O)c2cc(Cl)ccc2N)cc1 | - | MY330/88 | - | MIC | 31 µM |
| N/C(=N\NC(CC(=O)c1ccc(Cl)c(Cl)c1)c1ccncc1)c1ccccn1 | - | 17 strains | - | MIC50 | 16 µg/mL |
| Cc1ccc(-n2nnc3ccccc3c2=O)cc1 | - | MY330/88 | - | MIC | >125 µM |
| CCCCCOc1ccccc1NC(=O)OCC[NH+]1CCCC1 | - | MY330/88 | - | MIC | 125 µM |
| N/C(=N\NC(CC(=O)c1ccc(-c2ccccc2)cc1)c1ccncc1)c1ccccn1 | - | 17 strains | - | MIC50 | 32 µg/mL |
| CCc1cn2c(nc1=O)O[C@@H]1[C@H](F)[C@H]2O[C@@H]1CO | resazurin | ATCC 25291 | - | MIC25 | 50 µg/mL |
| CCCCCCCCCCCCCCCCS(=O)(=O)NC[C@H]1O[C@H](O[C@H]2O[C@H](CNS(=O)(=O)CCCCCCCCCCCCCCCC)[C@@H](O)[C@H](O)[C@H]2O)[C@H](O)[C@@H](O)[C@@H]1O | - | NJ211 | - | MIC | >32 µg/mL |
| CC(=O)Oc1cc(Cl)ccc1C(=O)Nc1ccc(Cl)cc1 | - | MY330/88 | - | MIC | 8 µg/mL |
| COc1ccc(-n2c(=O)oc3ccc([N+](=O)[O-])cc3c2=O)cc1 | - | CNCTC MY330/88 | - | MIC | >1000 µM |
| CC(=O)Oc1c(Cl)cccc1C(=O)Nc1ccc(C(F)(F)F)cc1 | - | MY330/88 | - | MIC | 8 µg/mL |
| Clc1ccc2c(c1)nc1cc(Nc3ccccc3)c(=NC3CCCCC3)cc-1n2-c1ccccc1 | - | 1389 | - | MIC | 3.3 µg/mL |
| Nc1ccccc1C(=O)Nc1cccc(F)c1 | - | MY330/88 | - | MIC | 500 µM |
| CCCCCCCCCCOc1cccc(NC(=O)OCCN2CCOCC2)c1 | - | MY330/88 | - | MIC | 16 µM |
| NC(=S)c1ccnc(N2CCCCC2)c1 | - | 330/88 | - | MIC | 500 µM |
| NCC[C@H](O)C(=O)N[C@@H]1C[C@H](N)[C@@H](O[C@H]2O[C@H](CN)[C@@H](O)[C@H](O)[C@H]2O)[C@H](O)[C@H]1O[C@H]1O[C@H](CO)[C@@H](O)[C@H](N)[C@H]1O | - | - | - | Median MIC | 4 µg/mL |
| Cc1ccc(Cn2c(=O)oc3ccc([N+](=O)[O-])cc3c2=O)cc1 | - | MY330/88 | - | MIC | 500 µM |
| N/C(=N\NC(CC(=O)c1cccc(Br)c1)c1cccnc1)c1ccccn1 | - | 17 strains | - | MIC50 | 80 µg/mL |
| N#CCCSc1cc(C#N)ccn1 | - | 330/88 | - | MIC | 500 µM |
| CCc1cn(C2OC(CO)C(O)C2F)c(=O)[nH]c1=S | resazurin | - | - | MIC35 | 100 µg/mL |
| C(/C=C/c1ccccc1)=Nc1ccc(CN2CCOCC2)cc1 | - | 103317 | - | MIC | 8 µg/mL |
| CO[C@H]1/C=C/O[C@@]2(C)Oc3c(C)c(O)c4c(O)c(c5c(c4c3C2=O)NC2(CCN(CC(C)C)CC2)N=5)=NC(=O)/C(C)=C\C=C\[C@H](C)[C@H](O)[C@@H](C)[C@@H](O)[C@@H](C)[C@H](OC(C)=O)[C@@H]1C | - | - | - | Median MIC | 1 µg/mL |
| Cc1ccc(C(=O)c2ccc(-c3ccc(Br)cc3)cc2)cc1 | - | - | - | MIC | 712 µM |
| COc1cccc(Nc2nc(C#N)cnc2C(N)=O)c1 | - | 80/72 | - | MIC | >100 µg/mL |
| Cc1cccc(C(=O)CC(N/N=C(\N)c2ccccn2)c2cccnc2)c1 | - | 17 strains | - | MIC90 | 320 µg/mL |
| O=c1oc2ccc(Br)cc2c(=O)n1-c1ccc(C(F)(F)F)cc1 | - | CNCTC MY330/88 | - | MIC | 4 µM |
| CC[C@H]1OC(=O)[C@H](C)C(=O)[C@H](C)[C@@H](O[C@@H]2O[C@H](C)C[C@H](N(C)C)[C@H]2O)[C@](C)(OC)C[C@@H](C)C(=O)[C@H](C)[C@H]2N(CCCCn3cnc(-c4cccnc4)c3)C(=O)O[C@]12C | - | Isolate 969 | - | MIC | 10 µg/mL |
| Cc1ccc(C(=O)CC(N/N=C(\N)c2ccccn2)c2ccccn2)cc1 | - | 17 strains | - | MIC50 | 80 µg/mL |
| CCCCCCCCCOc1cccc(NC(=O)OCCN(C)C)c1 | - | MY330/88 | - | MIC | 8 µM |
| CCCCCCNC[C@H]1O[C@H](O[C@H]2O[C@H](CNCCCCCC)[C@@H](O)[C@H](O)[C@H]2O)[C@H](O)[C@@H](O)[C@@H]1O | - | NJ3404 | - | MIC | >128 µg/mL |
| O=c1oc2ccccc2c(=O)n1-c1ccccc1 | - | CNCTC MY330/88 | - | MIC | 62 µM |
| N#Cc1cc(N2CCCCC2)ccn1 | - | 330/88 | - | MIC | 1000 µM |
| CCCCCC(N)=NC[C@H]1O[C@H](O[C@H]2O[C@H](CN=C(N)CCCCC)[C@@H](O)[C@H](O)[C@H]2O)[C@H](O)[C@@H](O)[C@@H]1O | - | NJ168 | - | MIC | >128 µg/mL |
| Cc1cccc(Nc2nc(C#N)cnc2C(N)=O)c1 | - | 80/72 | - | MIC | >100 µg/mL |
| O=c1[nH]c(=S)c(CO)cn1C1OC(CO)C(O)C1O | resazurin | ATCC 25291 | - | MIC73 | 100 µg/mL |
| CCCCCCOc1ccc(NC(=O)OCC[NH+]2CCCC2)cc1 | - | MY330/88 | - | MIC | 32 µM |
| NC(=S)CSc1ccnc(C(N)=S)c1 | - | 330/88 | - | MIC | 62 µM |
| CCS/C(N)=N\N=C\c1ccc(C(F)(F)F)cc1 | - | Clinical isolates | - | MIC50 | 3.12 µg/mL |
| O=C(NNC(=O)c1ccncc1)Nc1ccc(C(F)(F)F)cc1 | broth dilution | MY330/88 | 21 d | MIC100 | >125 µM |
| CCOc1ccccc1NC(=O)OCCN1CCCCC1 | - | MY330/88 | - | MIC | 1000 µM |
| Cc1cccc(C)c1Nc1nc(C#N)cnc1C(N)=O | - | 80/72 | - | MIC | >100 µg/mL |
| N#CCCCSc1ccnc(C(=N)N)c1 | - | 330/88 | - | MIC | >1000 µM |
| CS(=O)(=O)c1ccc(C(=O)c2ccc(-c3ccc(Br)cc3)cc2)cc1 | - | - | - | MIC | 78 µM |

Repeating the final 9 entries:

| structure | read by | strain or isolate | setting | endpoint | result |
|---|---|---|---|---|---|
| O=c1[nH]c(=S)c(CO)cn1C1OC(CO)C(O)C1O | resazurin | ATCC 25291 | - | MIC73 | 100 µg/mL |
| CCCCCCOc1ccc(NC(=O)OCC[NH+]2CCCC2)cc1 | - | MY330/88 | - | MIC | 32 µM |
| NC(=S)CSc1ccnc(C(N)=S)c1 | - | 330/88 | - | MIC | 62 µM |
| CCS/C(N)=N\N=C\c1ccc(C(F)(F)F)cc1 | - | Clinical isolates | - | MIC50 | 3.12 µg/mL |
| O=C(NNC(=O)c1ccncc1)Nc1ccc(C(F)(F)F)cc1 | broth dilution | MY330/88 | 21 d | MIC100 | >125 µM |
| CCOc1ccccc1NC(=O)OCCN1CCCCC1 | - | MY330/88 | - | MIC | 1000 µM |
| Cc1cccc(C)c1Nc1nc(C#N)cnc1C(N)=O | - | 80/72 | - | MIC | >100 µg/mL |
| N#CCCCSc1ccnc(C(=N)N)c1 | - | 330/88 | - | MIC | >1000 µM |
| CS(=O)(=O)c1ccc(C(=O)c2ccc(-c3ccc(Br)cc3)cc2)cc1 | - | - | - | MIC | 78 µM |

Neighbouring rows are from separate reports. MIC50, MIC90 and the like: level of inhibition, or share of isolates inhibited. Blank or dashed fields: not listed here.